Laboratory results: PubChem BioAssay AID624099 (ICCB-Longwood, 2012)
Aim: 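Human genes that papillomavirus E2 requires to repress the HPV18 LCR promoter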 (primary screen). Cell system: human C33A cervical carcinoma cells (HPV-negative) stably expressing BPV1 E2 and an HPV18 LCR luciferase reporter. Reagents: siRNA pool against human genes, 40 nM. Timing: 72 h. Measurement: 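Per-well luciferase luminescence, z-scored on each plate against the plate mean and SD with control wells left out, then averaged across three replicate plates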. Reading the numbers: mean z-score and z-score: higher = stronger reporter signal, weaker E2 silencing. Rule for the call: 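Mean z ≥ 2 together with z ≥ 2 in two or more of the three replicates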.
Here is an unselected part of about 21,000 deposited reagents. Over the whole deposit, 497 (2.4%) got an active call. 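Higher z means weaker E2 silencing; only reporter increases were scored, and knock-downs that hurt cell survival may mask genuine repressor factors.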 Unmarked entries are inactive.

| gene symbol | mean z-score | z-score, replicate A | z-score, replicate B | z-score, replicate C |
| --- | --- | --- | --- | --- |
| VSX1 | 0.4 | 0.59 | 0.14 | 0.46 |
| SYMPK | -0.4 | -0.39 | -0.58 | -0.23 |
| ALKBH8 | 0 | 0.34 | 0.09 | -0.42 |
| KBTBD12 | 0.41 | 0.64 | 0.33 | 0.26 |
| CXCL12 | -0.73 | -0.7 | -0.7 | -0.8 |
| TRIM35 | 0.15 | 0.07 | 0.57 | -0.2 |
| RCC1 | 0.97 | 1 | 1.29 | 0.63 |
| TP63 | 1.1 | 1.5 | 0.69 | 1.1 |
| FAT1 | 2.07 (active) | 2.26 | 2.41 | 1.54 |
| CCL1 | -0.04 | -0.07 | 0.22 | -0.26 |
| LOC401358 (retired record) | 0.25 | 0.16 | 0.43 | 0.15 |
| FBXO5 | -0.07 | -0.27 | 0.12 | -0.07 |
| LINC00310 | -2.68 | -2.53 | -2.28 | -3.22 |
| TLR1 | 1.13 | 1.03 | 1.22 | 1.13 |
| COL18A1-AS1 | -0.16 | -0.09 | -0.01 | -0.38 |
| ALDOA | 2.12 (active) | 1.72 | 2.13 | 2.51 |
| PLD5 | -0.01 | -0.22 | -0.27 | 0.47 |
| CHMP4B | -1.46 | -1.58 | -1.53 | -1.26 |
| SLC49A3 | -0.49 | -0.61 | -0.69 | -0.17 |
| CHST3 | 0.3 | 0.19 | 0.59 | 0.12 |
| ALKAL1 | 0.96 | 1 | 0.71 | 1.17 |
| LDLRAD2 | 0.78 | 0.35 | 1.26 | 0.74 |
| UPF3A | 0.12 | 0.39 | -0.02 | 0 |
| YTHDF2 | -0.71 | -0.33 | -0.91 | -0.9 |
| MLLT10 | 1.52 | 1.42 | 1.81 | 1.32 |
| HIGD2A | 2.48 (active) | 2.74 | 2.72 | 1.97 |
| PNPO | -0.67 | -0.82 | -0.9 | -0.28 |
| IQCF3 | -0.19 | -0.27 | -0.46 | 0.17 |
| QRFP | 0.32 | 0.85 | 0.07 | 0.05 |
| RPH3A | -2.33 | -2.03 | -2.5 | -2.47 |
| DCTD | -0.45 | -0.31 | -0.62 | -0.41 |
| BBS9 | -0.41 | -0.41 | -0.19 | -0.64 |
| HCAR1 | -0.19 | -0.26 | -0.36 | 0.04 |
| FBXL9P | -0.19 | -0.29 | -0.25 | -0.03 |
| TAFA4 | 0.5 | 0.2 | 0.13 | 1.16 |
| SCGB3A2 | -0.89 | -0.79 | -0.93 | -0.94 |
| LOC393076 (retired record) | -1.25 | -1.41 | -1.26 | -1.06 |
| MME | 1.17 | 1.04 | 1.11 | 1.34 |
| TM4SF18 | 0.34 | 0.56 | 0.45 | -0.01 |
| LMOD3 | 0.52 | 0.56 | 0.56 | 0.45 |
| HYAL1 | 0.21 | 0.34 | 0.32 | -0.04 |
| BTNL2 | 1.34 | 1.57 | 1.25 | 1.22 |
| CCDC63 | 1.75 | 1.56 | 1.48 | 2.22 |
| ZBED3 | 1.04 | 1.38 | 0.77 | 0.96 |
| LINC00927 | 0.13 | -0.07 | 0.19 | 0.26 |
| ZIC2 | 0.19 | 0.32 | 0.28 | -0.02 |
| SASH3 | 0.03 | 0.03 | 0.06 | 0.01 |
| NHERF2 | 0.13 | -0.03 | 0.15 | 0.27 |
| CMTM2 | -0.16 | 0.18 | 0 | -0.65 |
| SMR3A | 0.23 | 0.14 | 0.54 | 0 |
| C5orf15 | -0.13 | -0.32 | -0.32 | 0.26 |
| PRR30 | -0.6 | -0.48 | -0.73 | -0.6 |
| CD19 | -1.18 | -1.14 | -1.26 | -1.15 |
| DDIT4L | 2.38 (active) | 2.62 | 2.44 | 2.09 |
| ADAT2 | 0.24 | 0.01 | 0.12 | 0.61 |
| HDAC8 | -0.22 | -0.01 | -0.15 | -0.51 |
| LINC02076 | 1.93 | 2.02 | 1.71 | 2.06 |
| NCAPD2 | 0.07 | -0.05 | 0.22 | 0.03 |
| PTPN3 | -0.32 | -0.47 | -0.3 | -0.2 |
| SERPINB3 | -0.56 | -0.65 | -0.78 | -0.26 |
| BMPR2 | 0.34 | 0.38 | 0.47 | 0.19 |
| BMP7 | -1.07 | -0.85 | -1.02 | -1.36 |
| NUBP2 | 0.75 | 0.38 | 1.05 | 0.81 |
| DLGAP4 | 0.24 | 0.27 | 0.04 | 0.42 |
| RAX2 | -0.97 | -0.76 | -0.91 | -1.24 |
| ANKDD1A | -0.06 | 0.19 | -0.21 | -0.17 |
| KCNA5 | -0.69 | -0.78 | -0.75 | -0.54 |
| LRRC52 | -0.59 | -0.55 | -0.49 | -0.73 |
| FAM3D | -1.37 | -1.11 | -1.63 | -1.37 |
| NOXRED1 | -0.08 | 0.19 | -0.22 | -0.2 |
| CUL4B | 0 | -0.11 | 0.11 | 0 |
| ALG8 | -0.32 | -0.24 | -0.74 | 0.01 |
| CD72 | 1.03 | 0.79 | 1.18 | 1.12 |

Ordered by “z-score, replicate A” (lowest first): some entries from above
| gene symbol | mean z-score | z-score, replicate A | z-score, replicate B | z-score, replicate C |
| --- | --- | --- | --- | --- |
| SCGB3A2 | -0.89 | -0.79 | -0.93 | -0.94 |
| BBS9 | -0.41 | -0.41 | -0.19 | -0.64 |
| DCTD | -0.45 | -0.31 | -0.62 | -0.41 |
| FBXL9P | -0.19 | -0.29 | -0.25 | -0.03 |
| HCAR1 | -0.19 | -0.26 | -0.36 | 0.04 |
| TAFA4 | 0.5 | 0.2 | 0.13 | 1.16 |
